Sequence variants of PSTVd loop 6 after infection

Data from the supplement of Wu et al. 2024, doi:10.1371/journal.ppat.1012142.

The pool varies loop 6 of the PSTVd intermediate strain in the pattern UNNNCGNNNG; wild type is UGACCGCGAG (upper and lower strand joined, each 5' to 3', the first 5 letters being the upper strand, closing pairs included).

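Three N. benthamiana plants were inoculated with the whole mutant pool. Samples came from the inoculated region at 5 days, the leaf margin at 10 and upper systemic leaves at 12.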

Numbers give reads per thousand; 0 = not seen among the reads, higher = more abundant. Each site shows the three plants. "Pool" is the share in the plasmid pool used as inoculum, on the same scale. The inoculated region was read from the minus strand, the other sites from the plus strand. IR is the inoculated region, LM the leaf margin, Sys the systemic leaves. For reference, wild type rose from 20.7 per thousand in the pool to 195, 198, 203 (inoculated region), 629, 591, 734 (leaf margin) and 942, 870, 868 (systemic leaves). Samples held 36,220 to 57,551 reads, so the smallest values rest on one or two reads. The authors trace changes outside the varied positions to PCR and sequencing errors or to mutation in the plant; presence does not show that a variant is infectious alone.

{"sequence": "UAGACGAUAG", "pool": "0.301", "IR": "0.156 / 0.108 / 0.0553", "LM": "0 / 0 / 0.209", "Sys": "0 / 0 / 0"}
{"sequence": "UAGACGAUCG", "pool": "0.248", "IR": "0.156 / 0.126 / 0.0922", "LM": "0.0276 / 0 / 0.0464", "Sys": "0 / 0 / 0"}
{"sequence": "UAGACGAUGG", "pool": "0.183", "IR": "0.174 / 0.0898 / 0.0184", "LM": "0.0276 / 0 / 0.0232", "Sys": "0 / 0 / 0"}
{"sequence": "UAGACGAUUG", "pool": "0.209", "IR": "0.104 / 0.0719 / 0.184", "LM": "0 / 0 / 0", "Sys": "0 / 0 / 0"}
{"sequence": "UAGACGAUUU", "pool": "0.0131", "IR": "0 / 0 / 0", "LM": "0 / 0 / 0", "Sys": "0 / 0 / 0"}
{"sequence": "UAGACGCAAG", "pool": "0.0915", "IR": "0.104 / 0.108 / 0.148", "LM": "0 / 0 / 0", "Sys": "0 / 0 / 0"}
{"sequence": "UAGACGCACG", "pool": "0.170", "IR": "0.104 / 0.108 / 0.0738", "LM": "0 / 0 / 0.0232", "Sys": "0 / 0 / 0.0205"}
{"sequence": "UAGACGCAGG", "pool": "0.275", "IR": "0.209 / 0.0539 / 0.0553", "LM": "0.0276 / 0 / 0.0232", "Sys": "0 / 0 / 0"}
{"sequence": "UAGACGCAUG", "pool": "0.196", "IR": "0.0869 / 0.108 / 0.0369", "LM": "0 / 0 / 0", "Sys": "0 / 0 / 0"}
{"sequence": "UAGACGCCAG", "pool": "0.131", "IR": "0.139 / 0.0539 / 0.0922", "LM": "0 / 0 / 0.0232", "Sys": "0 / 0 / 0"}
{"sequence": "UAGACGCCCG", "pool": "0.288", "IR": "0.104 / 0.0719 / 0.0553", "LM": "0.0276 / 0 / 0.0232", "Sys": "0 / 0 / 0"}
{"sequence": "UAGACGCCGG", "pool": "0.105", "IR": "0.0869 / 0.0359 / 0.0184", "LM": "0 / 0 / 0", "Sys": "0 / 0 / 0"}
{"sequence": "UAGACGCCUG", "pool": "0.222", "IR": "0.104 / 0.0539 / 0.129", "LM": "0 / 0.0504 / 0.0232", "Sys": "0 / 0 / 0"}
{"sequence": "UAGACGCGAG", "pool": "0.144", "IR": "0.0695 / 0.144 / 0.129", "LM": "0.359 / 0.101 / 0.0232", "Sys": "0.0180 / 0.0202 / 0.0205"}
{"sequence": "UAGACGCGCG", "pool": "0.196", "IR": "0.660 / 0.611 / 0.516", "LM": "0.0552 / 0.227 / 0.0232", "Sys": "0 / 0 / 0"}
{"sequence": "UAGACGCGGG", "pool": "0.261", "IR": "0.122 / 0.108 / 0.184", "LM": "0 / 0 / 0", "Sys": "0 / 0 / 0"}
{"sequence": "UAGACGCGUG", "pool": "0.288", "IR": "0.174 / 0.0539 / 0.0738", "LM": "0 / 0 / 0", "Sys": "0 / 0 / 0"}
{"sequence": "UAGACGCUAG", "pool": "0.222", "IR": "0.156 / 0.0898 / 0.0922", "LM": "0.0276 / 0 / 0", "Sys": "0 / 0 / 0"}
{"sequence": "UAGACGCUCG", "pool": "0.235", "IR": "0.139 / 0.0359 / 0.111", "LM": "0 / 0 / 0", "Sys": "0 / 0 / 0"}
{"sequence": "UAGACGCUGG", "pool": "0.183", "IR": "0.122 / 0.108 / 0", "LM": "0.0276 / 0 / 0", "Sys": "0 / 0 / 0"}
{"sequence": "UAGACGCUUG", "pool": "0.209", "IR": "0.122 / 0.126 / 0.111", "LM": "0.0276 / 0 / 0.0464", "Sys": "0 / 0 / 0"}
{"sequence": "UAGACGGAAG", "pool": "0.170", "IR": "0.122 / 0.126 / 0.111", "LM": "0 / 0 / 0", "Sys": "0 / 0 / 0"}
{"sequence": "UAGACGGACG", "pool": "0.118", "IR": "0.695 / 0.880 / 0.590", "LM": "0.248 / 0.0504 / 0.139", "Sys": "0 / 0 / 0"}
{"sequence": "UAGACGGAGG", "pool": "0.183", "IR": "0.104 / 0.0719 / 0.0369", "LM": "0 / 0 / 0", "Sys": "0 / 0 / 0"}
{"sequence": "UAGACGGAUG", "pool": "0.209", "IR": "0.122 / 0.180 / 0.0369", "LM": "0.0828 / 0 / 0", "Sys": "0 / 0 / 0"}
{"sequence": "UAGACGGCAG", "pool": "0.248", "IR": "0.0869 / 0.0180 / 0.0553", "LM": "0 / 0 / 0", "Sys": "0 / 0 / 0"}
{"sequence": "UAGACGGCCG", "pool": "0.0915", "IR": "0.0521 / 0.0359 / 0.0738", "LM": "0 / 0 / 0.0232", "Sys": "0 / 0 / 0"}
{"sequence": "UAGACGGCGG", "pool": "0.261", "IR": "0.104 / 0.0539 / 0.166", "LM": "0.0276 / 0 / 0.0232", "Sys": "0 / 0 / 0"}
{"sequence": "UAGACGGCUG", "pool": "0.288", "IR": "0.0869 / 0.0359 / 0.148", "LM": "0.0276 / 0 / 0.0464", "Sys": "0 / 0 / 0"}
{"sequence": "UAGACGGGAG", "pool": "0.144", "IR": "0.678 / 0.611 / 0.369", "LM": "0.166 / 0.0757 / 0.0696", "Sys": "0 / 0 / 0"}
{"sequence": "UAGACGGGCG", "pool": "0.118", "IR": "0.695 / 0.790 / 0.479", "LM": "0.110 / 0.0757 / 0.0696", "Sys": "0.0180 / 0.0606 / 0"}
{"sequence": "UAGACGGGGG", "pool": "0.105", "IR": "0.0869 / 0.108 / 0.0184", "LM": "0.0276 / 0 / 0", "Sys": "0 / 0 / 0"}
{"sequence": "UAGACGGGUG", "pool": "0.248", "IR": "0.122 / 0.0719 / 0.0738", "LM": "0 / 0 / 0", "Sys": "0 / 0.0404 / 0.0410"}
{"sequence": "UAGACGGUAG", "pool": "0.222", "IR": "0.0869 / 0.0359 / 0.0553", "LM": "0 / 0 / 0.0464", "Sys": "0 / 0 / 0"}
{"sequence": "UAGACGGUCG", "pool": "0.222", "IR": "0.174 / 0.0539 / 0.0553", "LM": "0 / 0 / 0.0232", "Sys": "0 / 0 / 0"}
{"sequence": "UAGACGGUGG", "pool": "0.196", "IR": "0.156 / 0.0180 / 0.129", "LM": "0 / 0 / 0.0464", "Sys": "0 / 0 / 0"}

A selection of 4 entries from above:

UAGACGCGGG (pool 0.261) gave IR 0.122 / 0.108 / 0.184; LM 0 / 0 / 0; Sys 0 / 0 / 0.
UAGACGGGAG (pool 0.144) gave IR 0.678 / 0.611 / 0.369; LM 0.166 / 0.0757 / 0.0696; Sys 0 / 0 / 0.
UAGACGCUUG (pool 0.209) gave IR 0.122 / 0.126 / 0.111; LM 0.0276 / 0 / 0.0464; Sys 0 / 0 / 0.
UAGACGGUGG (pool 0.196) gave IR 0.156 / 0.0180 / 0.129; LM 0 / 0 / 0.0464; Sys 0 / 0 / 0.